The text below walks through data of patent publication US20220105119A1, “DELIVERY OF AEROSOLIZED MICROMOLAR COMPOSITION CONCENTRATIONS” (Amcyte Pharma Inc., priority 2020, published 2022).

The conditions of this series: in vivo.

On to Ivermectin, for which the “highest concentration achievable in the lungs” value is recorded as 573.1 ng/mL and the “highest concentration with lung accumulation” value is on record as “≈ 410 ng/mL”.
